Laboratory results from paper PMC11883728.

Biological target: transmembrane protease, serine 2 (TMPRSS2) (UniProt O15393)

In the case of “SARS-CoV-2 spike protein on reporter virus particles (RVPs) (from UniProt P0DTC2) (natural protein)”, the ΔT2 of LIONs-TMPRSS2 with RVPs at pH 5.0 is reported as 190 ms.
